Here are results for 1 sequence from article PMC7828395, “Mapping the DNA-Binding Motif of Scabin Toxin, a Guanine Modifying Enzyme from Streptomyces scabies” (Toxins, 2021).

The target in this data set is Scabin WT (Streptomyces scabies) (UniProt C9Z6T8). The data set is described as follows: fluorescence (Cy3-labelled ds-DNA), format not stated. To be noted: DNA-binding assay buffer; recombinant protein.

The exact form of at least one protein or probe is not confirmed.

With “GGAAGAGAGAGAGAAAGAGAG (double strand) [21-bp ds-DNA (Cy3)]”, the Kd amounted to 51 µM.

What is called Kd is the equilibrium constant for the complex coming apart.
